PubChem BioAssay AID504761 – Drosophila RNAi Screening Center, 2011
Aim: 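Insect host genes that dengue virus relies on to spread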 (primary screen). System: D.Mel-2 cells from Drosophila. Knock-down reagent: long dsRNA against Drosophila genes. Conditions: infection with dengue virus type 2; dose and infection time not stated. Detection: 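Per well on two replicate plates, imaging gave the percent of cells positive for viral envelope protein, ranked by infection, and a nuclear count of cells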. Direction: infection score: higher = more virus-infected cells; cell count: higher = more cells in the well. Active means: 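Low infection ranks in the two replicates (chance level up to 0.065) followed by a retest with a 1.5-fold or larger significant decrease, p below 0.05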. Meaning of the calls: active = confirmed: knock-down lowers infection; inactive = not picked or not confirmed.
In all, the deposit lists about 22,000 reagents; below is a random part of those with a known target gene and a result. Over the whole deposit, 116 (0.52%) are marked active. 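Calls depend on retest data that are not deposited; infection was ranked per plate without normalising between plates; the unit of the infection score is not given.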 The raw values are shown without normalisation. The numbers tell different reagents against one gene apart. Names joined by + are all predicted targets of the reagent. Not stated in the record: the amount of reagent, the time to read-out.

CG7016 showed cell count, replicate 1 = 300; cell count, replicate 2 = 293; inactive.
For CG6055, the values are infection score, replicate 1 = 2.73; infection score, replicate 2 = 12.4; cell count, replicate 1 = 6039; cell count, replicate 2 = 5870; inactive.
Silencing of Rlip came out at: infection score, replicate 1 = 6.15; infection score, replicate 2 = 1.57; cell count, replicate 1 = 6102; cell count, replicate 2 = 7092; inactive.
Cpr65Az #1 scored infection score, replicate 1 = 0.94; infection score, replicate 2 = 1.13; cell count, replicate 1 = 5946; cell count, replicate 2 = 5582; inactive.
After knock-down of Cpr65Az #2 the results were infection score, replicate 1 = 4.92; infection score, replicate 2 = 0.76; cell count, replicate 1 = 6124; cell count, replicate 2 = 6687; inactive.
Depletion of Cpr65Az #3 gave: infection score, replicate 1 = 9.61; infection score, replicate 2 = 18.6; cell count, replicate 1 = 5422; cell count, replicate 2 = 5687; inactive.
Silencing of mus201 + Chrac-14 #1 gave: infection score, replicate 1 = 5.11; cell count, replicate 1 = 6366; cell count, replicate 2 = 484; inactive.
Silencing of mus201 + Chrac-14 #2 gave: infection score, replicate 1 = 23.7; infection score, replicate 2 = 2.23; cell count, replicate 1 = 4848; cell count, replicate 2 = 6183; inactive.
After knock-down of CG5390 #1, the record shows infection score, replicate 1 = 5.75; infection score, replicate 2 = 2.02; cell count, replicate 1 = 6365; cell count, replicate 2 = 6838; inactive.
CG5390 #2 showed infection score, replicate 1 = 12.4; infection score, replicate 2 = 5.84; cell count, replicate 1 = 5458; cell count, replicate 2 = 6914; inactive.
Knock-down of Poxm #1 resulted in: infection score, replicate 1 = 2.86; infection score, replicate 2 = 5.94; cell count, replicate 1 = 6358; cell count, replicate 2 = 6536; inactive.
For Poxm #2 the deposit lists infection score, replicate 1 = 1.34; infection score, replicate 2 = 4.24; cell count, replicate 1 = 6122; cell count, replicate 2 = 6706; inactive.
After knock-down of CG7006, the record shows infection score, replicate 1 = 6.81; infection score, replicate 2 = 7.62; cell count, replicate 1 = 6846; cell count, replicate 2 = 7195; inactive.
After knock-down of HnRNP-K #1, the screen gave infection score, replicate 1 = 8.99; infection score, replicate 2 = 22.9; cell count, replicate 1 = 5350; cell count, replicate 2 = 5869; inactive.
HnRNP-K #2 showed infection score, replicate 1 = 1.71; infection score, replicate 2 = 5.35; cell count, replicate 1 = 6623; cell count, replicate 2 = 5397; inactive.
Knock-down of HnRNP-K #3 gave: infection score, replicate 1 = 1.44; infection score, replicate 2 = 3.25; cell count, replicate 1 = 5952; cell count, replicate 2 = 6063; inactive.
Silencing of Tsp29Fb #1 came out at: infection score, replicate 1 = 2.56; infection score, replicate 2 = 7.88; cell count, replicate 1 = 6371; cell count, replicate 2 = 6267; inactive.
Tsp29Fb #2 scored infection score, replicate 1 = 5.6; infection score, replicate 2 = 2.87; cell count, replicate 1 = 6659; cell count, replicate 2 = 5920; inactive.
Stam #1 scored infection score, replicate 1 = 11.3; infection score, replicate 2 = 10.5; cell count, replicate 1 = 5362; cell count, replicate 2 = 5178; inactive.
Stam #2 showed infection score, replicate 1 = 1.49; infection score, replicate 2 = 3.51; cell count, replicate 1 = 5566; cell count, replicate 2 = 5790; inactive.
Knock-down of ENGase #1 resulted in: infection score, replicate 1 = 9.18; infection score, replicate 2 = 14.4; cell count, replicate 1 = 6555; cell count, replicate 2 = 7078; inactive.
With knock-down of ENGase #2, the record shows infection score, replicate 1 = 1.81; infection score, replicate 2 = 0.81; cell count, replicate 1 = 6865; cell count, replicate 2 = 6920; inactive.
